# PubChem BioAssay AID624099, ICCB-Longwood, 2012
# Test: 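Knock-downs relieving repression by E2 of an HPV18 LCR luciferase reporter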 (primary screen)
# System: human C33A cervical carcinoma cells (HPV-negative) stably expressing BPV1 E2 and an HPV18 LCR luciferase reporter
# Reagent: siRNA pool against human genes, 40 nM
# Time to read-out: 72 h
# Detection: 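Per-well luciferase luminescence, z-scored on each plate against the plate mean and SD with control wells left out, then averaged across three replicate plates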
# Direction: mean z-score and z-score: higher = stronger reporter signal, weaker E2 silencing
# Active means: 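Mean z ≥ 2 together with z ≥ 2 in two or more of the three replicates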
# This is an unselected part of about 21,000 deposited reagents. In the full data, 497 (2.4%) are marked active. 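Higher z means weaker E2 silencing; only reporter increases were scored, and knock-downs that hurt cell survival may mask genuine repressor factors.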
gene,mean z-score,"z-score, replicate A","z-score, replicate B","z-score, replicate C",outcome
PRKG2 (GeneID 5593),-0.57,-0.37,-0.82,-0.53,inactive
C11orf58 (GeneID 10944),0.37,0.53,0.43,0.15,inactive
HNRNPKP1 (GeneID 389322),-0.92,-0.5,-1.16,-1.1,inactive
FMN2 (GeneID 56776),-0.26,-0.65,-0.15,0,inactive
FUOM (GeneID 282969),-1.82,-2.28,-1.63,-1.57,inactive
NRL (GeneID 4901),0.63,0.83,0.67,0.38,inactive
NAPSA (GeneID 9476),0.75,0.84,0.74,0.66,inactive

3 of these entries, set out differently.
{"gene": "FMN2 (GeneID 56776)", "mean z-score": -0.26, "z-score, replicate A": -0.65, "z-score, replicate B": -0.15, "z-score, replicate C": 0, "outcome": "inactive"}
{"gene": "FUOM (GeneID 282969)", "mean z-score": -1.82, "z-score, replicate A": -2.28, "z-score, replicate B": -1.63, "z-score, replicate C": -1.57, "outcome": "inactive"}
{"gene": "NRL (GeneID 4901)", "mean z-score": 0.63, "z-score, replicate A": 0.83, "z-score, replicate B": 0.67, "z-score, replicate C": 0.38, "outcome": "inactive"}

Further records:
gene,mean z-score,"z-score, replicate A","z-score, replicate B","z-score, replicate C",outcome
GJB1 (GeneID 2705),-0.23,-0.58,0.12,-0.25,inactive
TBR1 (GeneID 10716),-0.75,-0.64,-0.99,-0.61,inactive
FBXO24 (GeneID 26261),0.48,0.43,0.44,0.58,inactive
NCMAP (GeneID 400746),0.14,0.49,0.23,-0.31,inactive
FAM131A (GeneID 131408),-0.27,-0.36,-0.4,-0.07,inactive
UBE2H (GeneID 7328),1.04,1.22,0.69,1.21,inactive
PVT1 (GeneID 5820),1.14,0.81,1.26,1.36,inactive
ZNF577 (GeneID 84765),-0.66,-0.63,-0.47,-0.87,inactive
HNRNPA2B1 (GeneID 3181),2.06,2.31,1.87,1.99,inactive
VN1R4 (GeneID 317703),-0.7,-0.94,-0.7,-0.47,inactive
ABHD17A (GeneID 81926),2.28,2.01,2.58,2.24,active
COPB2 (GeneID 9276),-1.09,-0.79,-1.17,-1.32,inactive
ARL6IP5 (GeneID 10550),-0.03,-0.18,-0.03,0.12,inactive
GFI1B (GeneID 8328),0.08,0.31,0.19,-0.25,inactive
VN1R5 (GeneID 317705),-0.21,-0.39,0.06,-0.3,inactive
GJD2 (GeneID 57369),1.31,1.31,1.36,1.27,inactive
